Measured values from several laboratories, pooled; numbers as filed in NIAID ChemDB.

Common to all: tests in culture; agent: Cryptococcus neoformans

a–b is a range or a potency band.

structure	measure	strain or isolate	method	value
COc1cc(O)c2c(c1)C(=O)c1c(cc3c(c1O)-c1c(cc(C)c(C(=O)NC(CO)C(=O)O)c1O)[C@H](OC1OC(C)C(N(C)C)C(OC4OCC(O)C(O)C4O)C1O)[C@H]3O)C2=O	MIC	CS-01	-	1.6 µg/mL
OC(c1cc(C2CC3CCC2CC3)nc2c(Cl)cc(Cl)cc12)C1CCCCN1	MIC	ATCC 90013	-	0.4 µg/mL
CCOC(=O)c1sc2cc(-c3ccc(OC)cc3)oc(=O)c2c1N	MIC	CN-17	-	>100 µg/mL
Oc1cccc(C=Nc2ccccc2O)c1	MIC99	ATCC 62066	-	1.4 µg/mL
COc1ccc2c(c1)C1=C(CS2)C(c2ccc3c(c2)OCO3)C(C#N)=C(N)O1	MIC	93/V	-	6 µg/mL
CCC(C)n1ncn(-c2ccc(N3CCN(c4ccc(OC[C@H]5CO[C@](Cn6cncn6)(c6ccc(Cl)cc6Cl)O5)cc4)CC3)cc2)c1=O	MFC99	A25838	-	0.25 µg/mL
COc1ccccc1C1SCC(=O)N1C(CC(C)C)C(=O)O	EC50	-	broth dilution	35.85 µM
O=C(/C=C/c1cccc(Cl)c1)OC1CCN(CC(O)(Cn2cncn2)c2ccc(F)cc2F)CC1	MIC80	BLS108	broth dilution	0.498 µM
CNC(NC)c1ccc2cc(-n3cc(CCCO)nn3)c(=O)oc2c1	MIC	ATCC 62066	broth dilution	>750 µg/mL
Oc1ccccc1N=Cc1ccc2c(c1)OCO2	MIC	96806	broth dilution	5.7 µg/mL
Cc1ccc(CC(Cc2ccc(-c3ccccc3)cc2)n2ccnc2)cc1	MIC	-	-	33 µM
COc1ccc(-c2c(C#N)c(OC)nc3c2CSc2ccccc2-3)cc1	MIC	93/V	-	25 µg/mL
C[C@@H](c1ncncc1F)[C@](O)(Cn1cncn1)c1ccc(F)cc1F	MIC80	BLS1081	broth dilution	0.716 µM
Cc1cc(-c2cc(C)n(CCO)n2)no1	MIC	-	-	>200 µM
CCOC(=O)c1sc2cc(-c3cc(F)c(Cl)cc3Cl)oc(=O)c2c1N	MIC	CN-17	-	>100 µg/mL
COc1ccccc1C1SCC(=O)N1C(Cc1ccccc1)C(=O)O	EC50	-	broth dilution	48.05 µM
CCCCC/C=C\C/C=C\CCCCCCCC(=O)N[C@H]1C[C@@H](O)[C@@H](O)NC(=O)[C@@H]2[C@@H](O)[C@@H](C)CN2C(=O)[C@H]([C@H](C)O)NC(=O)[C@H]([C@H](O)[C@@H](O)c2ccc(O)cc2)NC(=O)[C@@H]2C[C@@H](O)CN2C(=O)[C@H]([C@H](C)O)NC1=O	MIC	-	-	>20 µg/mL
COc1cc(O)c2c(c1)C(=O)c1c(cc3c(c1O)-c1c(cc(C)c(C(=O)NC(C)C(=O)O)c1O)[C@H](OC1OC(C)C(N(C)CC(N)=O)C(OC4OCC(O)C(O)C4O)C1O)[C@H]3O)C2=O	MIC	IAM 4514	-	1.6 µg/mL
NC(=NC1CCCC1)c1ccc(-c2ccc(-c3ccc(C(N)=NC4CCCC4)cc3)o2)cc1	Geometric mean MFC	9 strains	-	4.59 µg/mL
COc1cc(NC(C)CCCN)c2nc(C(C)(C)C)ccc2c1Oc1cccc(C(F)(F)F)c1	EC50	-	-	1.5 µg/mL
CCn1nc(C)cc1-c1cc(C)on1	MFC	-	-	>200 µM
C[C@H]1[C@H](O)[C@@H](C)/C=C/C=C/C=C/C=C/C=C/C=C/C=C/[C@H](O[C@@H]2O[C@H](C)[C@@H](O)[C@H](N)[C@@H]2O)C[C@@H]2O[C@](O)(C[C@@H](O)C[C@@H](O)CC[C@H](O)[C@@H](O)C[C@@H](O)CC(=O)O[C@H]1C)C[C@H](O)[C@H]2C(=O)O	MIC	32609	broth dilution	4 µg/mL
CCC(C)n1ncn(-c2ccc(N3CCN(c4ccc(OC[C@H]5CO[C@](Cn6cncn6)(c6ccc(Cl)cc6Cl)O5)cc4)CC3)cc2)c1=O	MIC90	12 strains	-	1 µg/mL
CCOC(=O)c1sc(SC)cc1-c1ccc(C)cc1	MIC	CN-17	-	>100 µg/mL
COC(=O)[C@H]1[C@@H]2C[C@@H](O[C@@H]3O[C@H](C)[C@@H](O)[C@H](N)[C@@H]3O)/C=C/C=C/C=C/C=C/C=C/C=C/C=C/[C@H](C)[C@@H](O)[C@H](C)[C@H](C)OC(=O)C[C@H](O)C[C@H](O)[C@@H](O)CC[C@H](O)C[C@H](O)C[C@](O)(C[C@@H]1O)O2	MIC90	42 isolates (HIV+)	-	0.03 µg/mL
CCC(C)CC(C)CCCCCCCCC(=O)N[C@H]1C[C@@H](O)[C@H](NCCN)NC(=O)[C@@H]2[C@@H](O)CCN2C(=O)[C@H]([C@H](O)CCN)NC(=O)[C@H]([C@H](O)[C@@H](O)c2ccc(O)cc2)NC(=O)[C@@H]2C[C@@H](O)CN2C(=O)[C@H]([C@@H](C)O)NC1=O	MIC	19 isolates	-	0.25–1 µg/mL
Oc1ccccc1N=Cc1ccc(F)cc1	MIC99	F-10	-	8 µg/mL
CCOC(=O)c1sc2cc(-c3cccnc3)oc(=O)c2c1N	MIC	CN-17	-	>100 µg/mL
COC(/C=C/c1ccccc1)=C1/C(=O)C=C(C)C1=O	MFC	ATCC 90113	-	6.25 µg/mL
Nc1[nH]c(=O)ncc1F	MIC	H79	-	0.25 µg/mL
Clc1ccc(OCC(Cn2ccnc2)c2ccc(Cl)cc2Cl)cc1	MIC	-	-	<1 µg/mL
COc1c(O)c2c(=O)cc(OC)c3c4c(OC)cc(=O)c5c(O)c(OC)c6c(c(c1CC(C)(O)C6C(C)=O)c23)c54	EC50	-	-	>100 µg/mL
Clc1ccc(C(CCOc2ccccc2Br)Cn2ccnc2)c(Cl)c1	MIC	-	-	<1 µg/mL
Cc1cc(-c2n[nH]c(C)c2N=O)no1	MFC	-	-	60 µM
O=C(/C=C/c1ccc(Cl)cc1Cl)OC1CCN(CC(O)(Cn2cncn2)c2ccc(F)cc2F)CC1	MIC80	BLS108	broth dilution	0.466 µM
C[C@@H](N1CCc2nc(-c3ccsc3)sc2C1)[C@](O)(C[n+]1cnc[nH]1)c1ccc(F)cc1F	MIC	32609	-	0.5 µg/mL
CC[C@@H]([C@H](C)O)n1ncn(-c2ccc(N3CCN(c4ccc(OC[C@@H]5CO[C@@](Cn6cncn6)(c6ccc(F)cc6F)C5)cc4)CC3)cc2)c1=O	MIC90	10 strains	-	0.25 µg/mL
O=[N+]([O-])c1ccc(C=Nc2ccccc2O)cc1	MIC	VM-MCMMPI	broth dilution	32 µg/mL
OC(c1cc(-c2ccc(C(F)(F)F)cc2)nc(-c2ccc(C(F)(F)F)cc2)c1)C1CCCCN1	MIC	ATCC 90013	-	0.4 µg/mL
COc1ccc(OCCCC(Cn2ccnc2)c2ccc(Cl)cc2Cl)cc1	MIC	-	-	<1 µg/mL
O=C(/C=C/c1ccccc1F)OC1CCN(CC(O)(Cn2cncn2)c2ccc(F)cc2F)CC1	MIC80	BLS108	broth dilution	0.129 µM
COc1ccc(-c2c(C#N)c(OC)nc3c2CSc2ccccc2-3)cc1OC	MIC	93/V	-	6 µg/mL
C[C@@H](SC1COC(/C=C/C=C/c2ccc(C#N)cc2F)OC1)[C@](O)(Cn1cncn1)c1ccc(F)cc1F	MIC	TIMM1855	-	≤0.008 µg/mL
CO[C@H]1[C@@H](O)[C@H](O)[C@H](OC[C@@]23C[C@@H]4[C@H](C)CC[C@H]4[C@@]4(C=O)C[C@@H]2C=C(C(C)C)[C@@]34C(=O)O)O[C@@H]1C	MIC	MY2062	-	>100 µg/mL
CC(C)CC1NC(=O)CC(CCCCCCCCC(C)O)OC(=O)C(CC(C)C)NC(=O)C(CC(C)C)NC(=O)C(CC(C)C)NC(=O)C(C(C)C)NC(=O)C(CC(=O)O)NC(=O)C(CC(C)C)NC1=O	MIC	MTCC 4406	absorbance	2 µg/mL
Clc1ccc(CN(Cc2ccc(-c3ccccc3)cc2)n2ccnc2)c(Cl)c1	MFC	-	-	7.4 µM
CN[C@H]1CC[C@@H](c2ccc(Cl)c(Cl)c2)c2ccccc21	MIC90	Bt50	broth dilution	6 µg/mL
COc1ccc(-c2c(C#N)c(OC)nc3c2CSc2ccc(OC)cc2-3)cc1	MIC	93/V	-	100 µg/mL
COc1cc(O)c2c(c1)C(=O)c1c(cc3c(c1O)-c1c(cc(C)c(C(=O)NC(C)C(=O)O)c1O)[C@H](OC1OC(C)C(N(C)C(=O)CCN)C(OC4OCC(O)C(O)C4O)C1O)[C@H]3O)C2=O	MIC	IAM 4514	-	3.1 µg/mL
COc1cc(O)c2c(c1)C(=O)c1c(cc3c(c1O)-c1c(cc(C)c(C(=O)NC(CO)C(=O)O)c1O)[C@H](OC1OC(C)C(N(C)C)C(OC4OCC(O)C(O)C4O)C1O)[C@H]3O)C2=O	MIC	IAM 4514	-	1.6 µg/mL
CCCOc1nc2c(c(-c3ccc4c(c3)OCO4)c1C#N)CSc1ccc(Cl)cc1-2	MIC	Farwania	-	12.5 µg/mL
CCOC(=O)c1c(C)nc(NCCCCNc2ccnc3cc(Cl)ccc23)nc1-c1ccccc1	MIC99	C-3-1	-	2 µg/mL
COc1ccccc1C1SCCC(=O)N1C(Cc1ccccc1)C(=O)O	EC50	-	broth dilution	43.28 µM
C=C1CO[C@H]2[C@@H](C)OC(OC[C@@]34C[C@H]5[C@H](C)CC[C@@H]5[C@@]5(C=O)C[C@@H]3C=C(C(C)C)[C@@]45C(=O)O)C[C@@H]12	MIC90	22 strains (serotype C)	-	1 µg/mL
Clc1ccc(C(COc2ccc(Cl)cc2Cl)Cn2ccnc2)cc1	MIC	-	-	<1 µg/mL
O[C@](Cn1cncn1)(Cn1cnc(/C=C/c2ccc(OCC(F)(F)C(F)F)cc2)n1)c1ccc(F)cc1F	MIC	TIMM0362	-	0.78 µg/mL
CCCn1nc(C)c(N=O)c1-c1cc(C)on1	MIC	-	-	0.8 µM
CCOC(=O)c1c(C)nc(NCCCCNc2ccnc3cc(Cl)ccc23)nc1-c1ccccc1[N+](=O)[O-]	MIC99	ATCC 28957	-	1.4 µg/mL
CCOC(=O)c1sc(SC)c(C(=O)OC)c1O	MIC	CN-17	-	12.5 µg/mL
O=C(/C=C/c1ccc([N+](=O)[O-])cc1)OC1CCN(CC(O)(Cn2cncn2)c2ccc(F)cc2F)CC1	MIC80	BLS108	broth dilution	0.122 µM
c1ccc(CC(Cc2ccc(-c3ccccc3)cc2)n2ccnc2)cc1	MFC	-	-	5.5 µM
C[C@@H](n1ncn(-c2ccc(OCC(F)(F)C(F)F)cc2)c1=O)[C@](O)(Cn1cncn1)c1ccc(F)cc1F	MIC	DUMC 251.86	-	0.125 µg/mL
CCn1nc(-c2cc(C)on2)cc1C	MFC	-	-	>200 µM
CCCC(=O)OC1CCN(CC(O)(Cn2cncn2)c2ccc(F)cc2F)CC1	MIC80	BLS108	broth dilution	0.153 µM
CCn1nc(C)c(N=O)c1-c1cc(C)on1	MIC	-	-	0.1 µM
COc1ccc(CC(Cc2ccc(-c3ccccc3)cc2)n2ccnc2)cc1	MIC	-	-	5.5 µM
CC(C(=O)O)N1C(=O)CSC1c1ccccn1	EC50	-	broth dilution	22.5 µM
Clc1ccc(OCC(Cn2ccnc2)c2ccc(Br)cc2)cc1	MIC	-	-	10 µg/mL
COc1nc2c(c(-c3ccc4ccccc4c3)c1C#N)CSc1ccc(Cl)cc1-2	MIC	Farwania	-	25 µg/mL
Oc1ccccc1N=Cc1cccc(O)c1O	MIC	F-10	broth dilution	4 µg/mL
Clc1ccccc1CC(Cc1ccc(-c2ccccc2)cc1)n1ccnc1	MFC	-	-	33 µM
COc1ccc(OCCC(Cn2ccnc2)c2ccc(Cl)cc2Cl)cc1	MIC	-	-	<1 µg/mL
Oc1ccccc1C=Nc1ccccc1O	MIC	VM-MCMMPI	broth dilution	5.7 µg/mL
COc1cc(O)c2c(c1)C(=O)c1c(cc3c(c1O)-c1c(cc(C)c(C(=O)NC(C)C(=O)O)c1O)[C@H](OC1OC(C)C(N(C)C(=O)C(CO)(CO)CO)C(OC4OCC(O)C(O)C4O)C1O)[C@H]3O)C2=O	MIC	IAM 4514	-	>100 µg/mL
Cn1nc(Cc2ccc(Cl)cc2)c2ccccc2c1=O	MIC50	Clinical isolate (IM 042074)	broth dilution	3.9 µg/mL
CCn1c2c(c3ccccc31)C(=O)c1nccc(C)c1C2=O	MIC	-	-	>200 µg/mL

Repeating the final 11 entries:

structure | measure | strain or isolate | method | value
COc1ccc(CC(Cc2ccc(-c3ccccc3)cc2)n2ccnc2)cc1 | MIC | - | - | 5.5 µM
CC(C(=O)O)N1C(=O)CSC1c1ccccn1 | EC50 | - | broth dilution | 22.5 µM
Clc1ccc(OCC(Cn2ccnc2)c2ccc(Br)cc2)cc1 | MIC | - | - | 10 µg/mL
COc1nc2c(c(-c3ccc4ccccc4c3)c1C#N)CSc1ccc(Cl)cc1-2 | MIC | Farwania | - | 25 µg/mL
Oc1ccccc1N=Cc1cccc(O)c1O | MIC | F-10 | broth dilution | 4 µg/mL
Clc1ccccc1CC(Cc1ccc(-c2ccccc2)cc1)n1ccnc1 | MFC | - | - | 33 µM
COc1ccc(OCCC(Cn2ccnc2)c2ccc(Cl)cc2Cl)cc1 | MIC | - | - | <1 µg/mL
Oc1ccccc1C=Nc1ccccc1O | MIC | VM-MCMMPI | broth dilution | 5.7 µg/mL
COc1cc(O)c2c(c1)C(=O)c1c(cc3c(c1O)-c1c(cc(C)c(C(=O)NC(C)C(=O)O)c1O)[C@H](OC1OC(C)C(N(C)C(=O)C(CO)(CO)CO)C(OC4OCC(O)C(O)C4O)C1O)[C@H]3O)C2=O | MIC | IAM 4514 | - | >100 µg/mL
Cn1nc(Cc2ccc(Cl)cc2)c2ccccc2c1=O | MIC50 | Clinical isolate (IM 042074) | broth dilution | 3.9 µg/mL
CCn1c2c(c3ccccc31)C(=O)c1nccc(C)c1C2=O | MIC | - | - | >200 µg/mL

ECn is the concentration giving n% inhibition of infection, replication or growth. Blank or dashed fields: not listed here. MIC50, MIC90 and the like: level of inhibition, or share of isolates inhibited. Conditions beyond the fields shown may differ between rows.